## Share of PSTVd loop 15 variants by leaf site

Data from the supplement of Wu et al. 2024, doi:10.1371/journal.ppat.1012142.

The pool varies loop 15 of the PSTVd intermediate strain in the pattern GGAAACCGNNNNNNC; wild type is GGAAACCGCUACUAC (upper and lower strand joined, each 5' to 3', the first 7 letters being the upper strand, closing pairs included).

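Three N. benthamiana plants were inoculated with the whole mutant pool. Progeny were sequenced from the inoculated region (day 5), the margin of the inoculated leaf (day 10) and systemic leaves (day 12).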

Values are reads per thousand in the sample; higher means more abundant, 0 means not found. Each site shows the three plants. "Pool" is the share in the plasmid pool used as inoculum, on the same scale. The inoculated region was read from the minus strand, the other sites from the plus strand. IR is the inoculated region, LM the leaf margin, Sys the systemic leaves. With 43,870-66,106 reads a sample, very low values are single reads.

| sequence | pool | IR | LM | Sys |
|---|---|---|---|---|
| GGAAACCGAUCGCGC | 0.288 | 0.0655 0.0161 0.0762 | 0 0.0445 0.0200 | 0 0 0 |
| GGAAACCGAUCGCUC | 0.208 | 0.164 0.0161 0.0571 | 0 0 0.0601 | 0 0 0 |
| GGAAACCGAUCGGAC | 0.240 | 0.328 0.289 0.400 | 0.162 0.0668 0.180 | 0.113 0 0 |
| GGAAACCGAUCGGCC | 0.176 | 0.0819 0.129 0.152 | 0 0 0.0200 | 0.0322 0 0 |
| GGAAACCGAUCGGGC | 0.256 | 0.0655 0.0964 0.0762 | 0 0.0223 0.0401 | 0 0 0 |
| GGAAACCGAUCGGUC | 0.208 | 0.164 0.0482 0.152 | 0.0162 0 0.0200 | 0 0 0 |
| GGAAACCGAUCGUAC | 0.240 | 0.295 0.434 0.438 | 0.113 0.200 0.120 | 0.0161 0.0756 0.0456 |
| GGAAACCGAUCGUCC | 0.256 | 0.213 0.289 0.438 | 0.162 0.134 0.160 | 0.0644 0.0303 0.137 |
| GGAAACCGAUCGUGC | 0.224 | 0.262 0.321 0.343 | 0.0647 0.156 0.180 | 0.0161 0.106 0.0912 |
| GGAAACCGAUCGUUC | 0.288 | 0.475 0.643 0.666 | 0.162 0.134 0.140 | 0.0161 0.106 0.0684 |
| GGAAACCGAUCUAAC | 0.176 | 0.229 0.386 0.171 | 0 0 0.0200 | 0 0 0 |
| GGAAACCGAUCUACC | 0.144 | 0.147 0.193 0.0190 | 0.0162 0 0.0200 | 0.0161 0 0 |
| GGAAACCGAUCUAGC | 0.144 | 0.0655 0.0643 0.0381 | 0.0162 0 0 | 0 0 0 |
| GGAAACCGAUCUAUC | 0.144 | 0.0328 0.0964 0.114 | 0 0 0.0601 | 0 0 0 |
| GGAAACCGAUCUCAC | 0.288 | 0.131 0.112 0.0571 | 0.0323 0 0.0200 | 0 0 0 |
| GGAAACCGAUCUCCC | 0.288 | 0.0655 0.0643 0.114 | 0.0162 0 0.0601 | 0 0 0 |
| GGAAACCGAUCUCGC | 0.128 | 0.164 0.112 0.114 | 0 0 0 | 0.0322 0 0 |
| GGAAACCGAUCUCUC | 0.240 | 0.147 0.177 0.152 | 0 0 0 | 0.0161 0 0 |
| GGAAACCGAUCUGAC | 0.240 | 0.115 0.0803 0.0952 | 0 0.0223 0 | 0 0 0 |
| GGAAACCGAUCUGCC | 0.176 | 0.0819 0.112 0.209 | 0.0162 0 0.0401 | 0 0 0.0228 |
| GGAAACCGAUCUGGC | 0.208 | 0.229 0.0964 0.114 | 0 0 0.0401 | 0.0161 0 0 |
| GGAAACCGAUCUGUC | 0.192 | 0.147 0.145 0.0952 | 0.0162 0.0445 0.0200 | 0 0 0 |
| GGAAACCGAUCUUAC | 0.240 | 0.246 0.241 0.343 | 0.129 0.134 0.140 | 0.0483 0.0454 0.0912 |
| GGAAACCGAUCUUCC | 0.288 | 0.0983 0.0482 0.0571 | 0 0.0223 0 | 0 0 0 |
| GGAAACCGAUCUUGC | 0.320 | 0.229 0.0964 0.0952 | 0 0 0.0200 | 0.0161 0 0 |
| GGAAACCGAUCUUUC | 0.304 | 0.409 0.337 0.324 | 0.129 0.0445 0.180 | 0.0161 0 0 |
| GGAAACCGAUGAAAC | 0.240 | 0.0819 0.0803 0.0762 | 0 0 0.0401 | 0 0 0 |
| GGAAACCGAUGAACC | 0.192 | 0.0655 0.177 0.152 | 0 0 0 | 0 0 0 |
| GGAAACCGAUGAAGC | 0.224 | 0.0655 0.0643 0.114 | 0 0 0 | 0 0 0 |
| GGAAACCGAUGAAUC | 0.208 | 0.0655 0.112 0.0762 | 0 0.0668 0.0200 | 0 0 0 |
| GGAAACCGAUGACAC | 0.176 | 0.0983 0.0803 0.0952 | 0 0.0668 0.0200 | 0 0 0 |
| GGAAACCGAUGACCC | 0.272 | 0.164 0.0964 0.171 | 0.0162 0 0.0401 | 0 0 0 |
| GGAAACCGAUGACGC | 0.144 | 0.0819 0.129 0.0571 | 0 0 0.0200 | 0 0 0 |
| GGAAACCGAUGACUC | 0.240 | 0.0655 0.0803 0.209 | 0.0162 0 0.0401 | 0 0 0 |
| GGAAACCGAUGAGAC | 0.160 | 0.164 0.112 0.0952 | 0.0162 0.0223 0 | 0 0 0 |
| GGAAACCGAUGAGCC | 0.160 | 0.0655 0.161 0.0381 | 0.0162 0 0 | 0 0 0 |
| GGAAACCGAUGAGGC | 0.288 | 0.0164 0.0803 0.171 | 0 0 0.0200 | 0 0 0 |
| GGAAACCGAUGAGUC | 0.256 | 0.0983 0.0482 0.114 | 0 0 0 | 0 0 0 |
| GGAAACCGAUGAUAC | 0.144 | 0.180 0.369 0.438 | 0.0970 0.0445 0.220 | 0.0483 0 0 |
| GGAAACCGAUGAUCC | 0.208 | 0.0983 0.0964 0.171 | 0.0162 0 0.0401 | 0 0 0 |
| GGAAACCGAUGAUGC | 0.320 | 0.0491 0.0643 0.0381 | 0.0323 0 0.0401 | 0 0 0 |
| GGAAACCGAUGAUUC | 0.192 | 0.0819 0.0321 0.0762 | 0 0 0 | 0.0161 0 0 |
| GGAAACCGAUGCAAC | 0.336 | 0.0819 0.0482 0.133 | 0 0 0 | 0 0 0 |
| GGAAACCGAUGCACC | 0.144 | 0.0655 0.112 0.133 | 0 0.0223 0.0401 | 0 0 0 |
| GGAAACCGAUGCAGC | 0.240 | 0.131 0.0482 0.0381 | 0 0 0.0200 | 0 0 0 |
| GGAAACCGAUGCAUC | 0.208 | 0.115 0.0482 0.0381 | 0 0 0.0200 | 0 0 0 |
| GGAAACCGAUGCCAC | 0.288 | 0.0983 0.0643 0.0762 | 0 0 0.0601 | 0 0 0 |
| GGAAACCGAUGCCCC | 0.240 | 0.0819 0.0964 0.0762 | 0 0 0.0401 | 0 0 0 |
| GGAAACCGAUGCCGC | 0.224 | 0.0819 0.0643 0 | 0 0.0223 0 | 0 0 0 |
| GGAAACCGAUGCCUC | 0.240 | 0.0655 0.129 0.190 | 0.0162 0 0.0200 | 0 0 0 |
| GGAAACCGAUGCGAC | 0.240 | 0.0819 0.0803 0.0762 | 0.0162 0 0 | 0 0 0 |
| GGAAACCGAUGCGCC | 0.192 | 0.115 0.0482 0.0952 | 0 0 0 | 0 0 0 |
| GGAAACCGAUGCGGC | 0.160 | 0.0983 0.161 0.0762 | 0 0 0 | 0 0 0 |
| GGAAACCGAUGCGUC | 0.160 | 0.164 0.193 0.114 | 0.0162 0 0 | 0 0 0 |
| GGAAACCGAUGCUAC | 0.288 | 0.311 0.305 0.343 | 0.194 0.156 0.140 | 0.0644 0 0 |
| GGAAACCGAUGCUCC | 0.160 | 0.147 0.257 0.152 | 0.0162 0.0223 0 | 0.0161 0.0151 0 |
| GGAAACCGAUGCUGC | 0.240 | 0.197 0.0803 0.0571 | 0 0 0 | 0 0 0 |

Extract of 6 entries:

sequence	pool	IR	LM	Sys
GGAAACCGAUGAAGC	0.224	0.0655 0.0643 0.114	0 0 0	0 0 0
GGAAACCGAUCUGAC	0.240	0.115 0.0803 0.0952	0 0.0223 0	0 0 0
GGAAACCGAUCUCCC	0.288	0.0655 0.0643 0.114	0.0162 0 0.0601	0 0 0
GGAAACCGAUCUCGC	0.128	0.164 0.112 0.114	0 0 0	0.0322 0 0
GGAAACCGAUGCCCC	0.240	0.0819 0.0964 0.0762	0 0 0.0401	0 0 0
GGAAACCGAUGAUUC	0.192	0.0819 0.0321 0.0762	0 0 0	0.0161 0 0

Wild type was 33.9 per thousand in the pool and the most common sequence in every sample (inoculated region 202, 200, 159; leaf margin 724, 746, 710; systemic leaves 856, 883, 880). The authors trace changes outside the varied positions to PCR and sequencing errors or to mutation in the plant; presence does not show that a variant is infectious alone.